We go through seven sequences from article PMC3203922.

Sequences of proteins named here, by UniProt entry; tags and fusion partners are left off. A change or cut given only in a name is not applied to a line headed by its entry.
UniProt P0A2S0: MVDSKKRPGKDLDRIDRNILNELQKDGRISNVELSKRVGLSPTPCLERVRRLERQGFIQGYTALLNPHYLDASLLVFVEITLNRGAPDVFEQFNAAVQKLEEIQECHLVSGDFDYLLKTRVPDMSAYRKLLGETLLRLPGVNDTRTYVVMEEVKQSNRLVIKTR

Data set [1] concerns the target Lrp (UniProt P0A2S0). Description: EMSA. The conditions noted are these: 50-150 nM Lrp, Lrp+FimZ EMSA: 5 mM Tris-HCl pH 7.5, 25 mM KCl, 0.5 mM EDTA, 0.5 mM DTT, 5 ug/ml BSA, 20% glycerol, room temperature 15 min, 5% PAGE in TTE, recombinant protein, probe letters rebuilt from the primers and the genome.
Data set [2] has as its target Lrp (UniProt P0A2S0). Description: DNase I footprinting. The conditions noted are these: recombinant protein, probe letters rebuilt from the primers and the genome.

For at least one entry, the source does not settle the construct or the ends of the probe.

On to “TGTGGATCCAAGTCAAAGGGGATGACTCTAGACCGTCAGAAGCGGGCCTCGCTGTCAGTTAACGTTTGTGTTTCCGATGCAAACGCGACGTCTCCCCCGTCTGTTGACGATACTGAGACGTGGCCCGTAAGCGCGCCATGATTAACCAAAAAGAAACAATTCATCACCCTGGCTATGGTTACCGTAATCCCTCGTCGTTAATAGCATCGGGCGGCATAATGCGACATTTTATACAAAATAAGATTAGACCCTTCTTATATCCCAATAAGAATTAGCTTAGGTCATTATAAAGAGTTTGCGGCTATTCTCGAGTTAGCGAAATGTTTAATTTATTACCGTGACGAAATGTCATATTCGCAAAGATTAATTACTGCGTCTGATACTCAGG (double strand) [PfimA1325 (alpha gamma)]”, for which the binding result with Lrp [1] (indistinguishable from WT) is “binds”. With “TGTGGATCCAAGTCAAAGGGGATGACTCTAGACCGTCAGAAGCGGGCCTCGCTGTCAGTTAACGTTTGTGTTTCCGATGCAAACGCGACGTCTCCCCCGTCTGTTGACGATACTGAGACGTGGCCCGTAAGCGCGCCATGATTAACCAAAAAGAAACAATTCATCACCCTGGCTATGGTTACCGTAATCCCTCGTCGTTAATAGCATCGGGCGGCATAATGCGACATTTTATACAAAATAAGATTAGACCCTTCTTATATCCCAATAAGAATTAGCTTAGGTCATTATAAAGAGTTTGCGGCTATTTTTTATTTAGCGAAATGTTTAATTTATTACCGTGACGAAATGTCATATTCGCAAAGATTAATTACTGCGTCTGATACTCAGG (double strand) [PfimA1225 (gamma)]”, in the data set with Lrp [1] (indistinguishable from WT), the binding result was “binds”.

As for “TGTGGATCCAAGTCAAAGGGGATGACGCTATTTTGTCAGAAGCGGGCCTCGCTGTCAGTTAACGTTTGTGTTTCCGATGCAAACGCGACGTCTCCCCCGTCTGTTGACGATACTGAGACGTGGCCCGTAAGCGCGCCATGATTAACCAAAAAGAAACAATTCATCACCCTGGCTATGGTTACCGTAATCCCTCGTCGTTAATAGCATCGGGCGGCATAATGCGACATTTTATACAAAATAAGATTAGACCCTTCTTATATCCCAATAAGAATTAGCTTAGGTCATTATAAAGAGTTTGCGGCTATTCTCGAGTTAGCGAAATGTTTAATTTATTACCGTGACGAAATGTCATATTCGCAAAGATTAATTACTGCGTCTGATACTCAGG (double strand) [PfimA413 (alpha)]”, the binding result with Lrp [1] (indistinguishable from WT) is “binds”. On to “TGTGGATCCAAGTCAAAGGGGATGACGCTATTTTGTCAGAAGCGGGCCTCGCTGTCAGTTAACGTTTGTGTTTCCGATGCAAACGCGACGTCTCCCCCGTCTGTTGACGATACTGAGACGTGGCCCGTAAGCGCGCCATGATTAACCAAAAAGAAACAATTCATCACCCTGGCTATGGTTACCGTAATCCCTCGTCGTTAATAGCATCGGGCGGCATAATGCGACATTTTATACAAAATAAGATTAGACCCTTCTTATATCCCAATAAGAATTAGCTTAGGTCATTATAAAGAGTTTGCGGCTATTTTTTATTTAGCGAAATGTTTAATTTATTACCGTGACGAAATGTCATATTCGCAAAGATTAATTACTGCGTCTGATACTCAGG (double strand) [PfimA(WT)]”, for which the binding result with Lrp [1] (EDTA, no divalent cations, leucine no significant effect) is reported as “binds”; in the data set with Lrp [2] (150, 100, 50 nM Lrp, poly(dI-dC) 10 ug/ml), “binds”; in the data set with Lrp [2] (leucine, no significant effect on footprint), “binds”.

With “TGTGGATCCAAGTCAAAGGGGATGACGCTATTTTGTCAGAAGCGGGCCTCGCTGTCAGTTAACGTTTGTGTTTCCGATGCAAACGCGACGTCTCCCCCGTCTGTTGACGATACTGAGACGTGGCCCGTAAGCGCGCCATGATTAACCAAAAAGAAACAATTCATCACCCTGGCTATGGTTACCGTAATCCCTCGTCGTTAATAGCATCGGGCGGCATAATGCAGATCTCCATACAAAATAAGATTAGACCCTTCTTATATCCCAATAAGAATTAGCTTAGGTCATTATAAAGAGTTTGCGGCTATTCTCGAGTTAGCGAAATGTTTAATTTATTACCGTGACGAAATGTCATATTCGCAAAGATTAATTACTGCGTCTGATACTCAGG (double strand) [PfimA1329 (alpha beta)]”, in the data set with Lrp [1] (indistinguishable from WT), the binding result is “binds”. Consider “TGTGGATCCAAGTCAAAGGGGATGACTCTAGACCGTCAGAAGCGGGCCTCGCTGTCAGTTAACGTTTGTGTTTCCGATGCAAACGCGACGTCTCCCCCGTCTGTTGACGATACTGAGACGTGGCCCGTAAGCGCGCCATGATTAACCAAAAAGAAACAATTCATCACCCTGGCTATGGTTACCGTAATCCCTCGTCGTTAATAGCATCGGGCGGCATAATGCAGATCTCCATACAAAATAAGATTAGACCCTTCTTATATCCCAATAAGAATTAGCTTAGGTCATTATAAAGAGTTTGCGGCTATTTTTTATTTAGCGAAATGTTTAATTTATTACCGTGACGAAATGTCATATTCGCAAAGATTAATTACTGCGTCTGATACTCAGG (double strand) [PfimA2925 (beta gamma)]”, for which the binding result in the data set with Lrp [1] (indistinguishable from WT) is given as “binds”. The same measure, in the same setting: under “TGTGGATCCAAGTCAAAGGGGATGACGCTATTTTGTCAGAAGCGGGCCTCGCTGTCAGTTAACGTTTGTGTTTCCGATGCAAACGCGACGTCTCCCCCGTCTGTTGACGATACTGAGACGTGGCCCGTAAGCGCGCCATGATTAACCAAAAAGAAACAATTCATCACCCTGGCTATGGTTACCGTAATCCCTCGTCGTTAATAGCATCGGGCGGCATAATGCAGATCTCCATACAAAATAAGATTAGACCCTTCTTATATCCCAATAAGAATTAGCTTAGGTCATTATAAAGAGTTTGCGGCTATTTTTTATTTAGCGAAATGTTTAATTTATTACCGTGACGAAATGTCATATTCGCAAAGATTAATTACTGCGTCTGATACTCAGG (double strand) [PfimA529 (beta)]” stands “binds”.
